A mixed list of measured activities; the numbers were collected in NIAID ChemDB.

Shared fields: tests in culture; organism: Aspergillus fumigatus

Inhibition is in % at the dose shown (toxicity tests: loss of growth or viability).

structure	tested at	read-out	read by	strain	result
CN(C/C=C/C#CC(C)(C)C)Cc1cccc2ccccc12		MFC		NFI 0239	4 µg/mL
O=C(/C=C/c1ccc2c(c1)OCO2)c1ccc2occc2c1O	50 µg/disc	zone	agar diffusion		0 mm
CC(=O)c1ccccc1O		MIC100	agar		106 µg/mL
C[C@H]1[C@H](O)[C@@H](C)/C=C/C=C/C=C/C=C/C=C/C=C/C=C/[C@H](O[C@@H]2O[C@H](C)[C@@H](O)[C@H](N)[C@@H]2O)C[C@@H]2O[C@](O)(C[C@@H](O)C[C@@H](O)CC[C@H](O)[C@@H](O)C[C@@H](O)CC(=O)O[C@H]1C)C[C@H](O)[C@H]2C(=O)O	1 µg/mL	inhibition	agar	AB16.4	0%
CC(=O)OC[C@H]1O[C@@H](Sc2nnc(-c3cccnc3)n2/N=C/c2ccc(C)cc2)[C@H](OC(C)=O)[C@@H](OC(C)=O)[C@@H]1OC(C)=O	5 mg/mL	zone	agar diffusion / agar		1–5 mm
O=C(O)c1cc(O)c(O)c(O)c1		MIC100	agar		>1000 µg/mL
CCC(C)n1ncn(-c2ccc(N3CCN(c4ccc(OC[C@H]5CO[C@](Cn6cncn6)(c6ccc(Cl)cc6Cl)O5)cc4)CC3)cc2)c1=O		Geometric mean MIC		60 isolates	0.63 µg/mL
CC(=O)OC[C@H]1O[C@@H](Sc2nnc(-c3cccnc3)n2/N=C/c2ccccc2)[C@H](OC(C)=O)[C@@H](OC(C)=O)[C@@H]1OC(C)=O	1 mg/mL	zone	agar diffusion / agar		1–5 mm
Cc1ccc(C(C)C)cc1O		MIC50	agar		37 µg/mL
O=c1cc(-c2ccc3c(c2)OCO3)oc2c1ccc1occc12	50 µg/disc	zone	agar diffusion		14 mm
CC(=O)OC[C@H]1O[C@@H](Sc2ncc(-c3cccnc3)n2N)[C@H](OC(C)=O)[C@@H](OC(C)=O)[C@@H]1OC(C)=O	1 mg/mL	zone	agar diffusion / agar		1–5 mm
C=CCc1ccc(O)c(OC)c1		MIC50	agar		49 µg/mL
COc1ccc(/C=N/[n+]2c(-c3ccccc3)[nH]n([C@@H]3O[C@H](COC(C)=O)[C@@H](OC(C)=O)[C@H](OC(C)=O)[C@H]3OC(C)=O)c2=S)cc1	5 mg/mL	zone	agar diffusion / agar		6–10 mm
C[C@@H](c1ncncc1F)[C@](O)(Cn1cncn1)c1ccc(F)cc1F		MIC		NFI 0159	0.13 µg/mL
CC(=O)OC[C@H]1O[C@@H](Sc2nnc(-c3cccnc3)n2/N=C/c2ccc(Cl)cc2)[C@H](OC(C)=O)[C@@H](OC(C)=O)[C@@H]1OC(C)=O	2.5 mg/mL	zone	agar diffusion / agar		1–5 mm
O=c1cc(-c2ccccc2)oc2c1c(O)cc1occc12	50 µg/disc	zone	agar diffusion		9.5 mm

Again, the opening 2 rows:

structure,tested at,read-out,read by,strain,result
CN(C/C=C/C#CC(C)(C)C)Cc1cccc2ccccc12,,MFC,,NFI 0239,4 µg/mL
O=C(/C=C/c1ccc2c(c1)OCO2)c1ccc2occc2c1O,50 µg/disc,zone,agar diffusion,,0 mm

a–b is a range or a potency band. MIC50, MIC90 and the like: level of inhibition, or share of isolates inhibited. Conditions beyond the fields shown may differ between rows. An empty or dashed field is not shown. Zone: diameter of growth inhibition.